Biological target: F protein of RSV Long (A, Maryland US, 1956; A/Long/56) (RSV (strain Long), UniProt P12568 26-574)
Test: cell-based or functional assay

Amino acid sequences for entries named in this document (tags omitted). Residues count along the entry.
UniProt P12568, 26-574: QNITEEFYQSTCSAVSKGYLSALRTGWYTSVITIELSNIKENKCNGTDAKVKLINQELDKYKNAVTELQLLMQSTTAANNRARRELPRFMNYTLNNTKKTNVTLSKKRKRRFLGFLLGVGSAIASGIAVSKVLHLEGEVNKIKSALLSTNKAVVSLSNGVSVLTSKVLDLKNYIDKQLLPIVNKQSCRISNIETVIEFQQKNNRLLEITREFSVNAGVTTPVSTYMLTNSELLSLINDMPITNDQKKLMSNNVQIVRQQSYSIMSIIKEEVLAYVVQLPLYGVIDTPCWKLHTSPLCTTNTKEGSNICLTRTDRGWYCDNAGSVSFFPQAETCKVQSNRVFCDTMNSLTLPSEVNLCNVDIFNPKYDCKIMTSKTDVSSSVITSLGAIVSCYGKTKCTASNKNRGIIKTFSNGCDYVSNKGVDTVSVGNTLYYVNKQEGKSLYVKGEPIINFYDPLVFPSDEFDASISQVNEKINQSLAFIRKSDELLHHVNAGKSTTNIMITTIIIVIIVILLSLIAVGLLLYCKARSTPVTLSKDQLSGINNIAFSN

B1: Palivizumab (antibody, V domains shown)
VH: QVTLRESGPALVKPTQTLTLTCTFSGFSLSTSGMSVGWIRQPPGKALEWLADIWWDDKKDYNPSLKSRLTISKDTSKNQVVLKVTNMDPADTATYYCARSMITNWYFDVWGAGTTVTVSS
VL: DIQMTQSPSTLSASVGDRVTITCKCQLSVGYMHWYQQKPGKAPKLLIYDTSKLASGVPSRFSGSGSGTEFTLTISSLQPDDFATYYCFQGSGYPFTFGGGTKLEIK
Neutralization IC50: 0.599 µg/mL

Reference: patent publication US20140037648A1 (HUMABS BIOMED, published 2014)
